{
  "source": "patent US20160106813A1",
  "about": "(CENTRE NATIONAL DE LA RECHERCHE SCHIENTIFIQUE (CNRS), priority 2013, published 2016)",
  "test_system": "HIV-1 JRCSF",
  "format": "cell-based",
  "conditions": "MDLCs pretreated with the peptide, pulsed with HIV-1 JRCSF (R5), co-cultured a week with CD4+ TCs",
  "procedure": "Peripheral blood mononuclear cells (PBMCs) from healthy donors were separated from whole blood by a standard Ficoll gradient. CD14+ monocytes and CD4+ TCs were obtained from PBMCs by negative magnetic selection (Stemcell Technologies, Grenoble, France) according to the manufacturer's instructions. MDLC were prepared and maintained as described (Masterson et al., Blood 100:701-703; Geissmann et al., J Exp Med 187:961-966.)",
  "data": [
    {"substance": "Cys(Acm)2,7-h-alpha-CGRP [reference compound]", "values": [
      {"measurement": "HIV-1 transfer from Langerhans cells to TCs (in words)", "result": "ineffective"}
    ]}
  ]
}
